According to paper PMC11110727, “Exploiting thiol-functionalized benzosiloxaboroles for achieving diverse substitution patterns – synthesis, characterization and biological evaluation of promising antibacterial agents” (RSC Medicinal Chemistry, 2024):

What was measured:
[1] = tested on: S. aureus MRSA clinical strains (NMI); assay: Selectivity index SI = IC50/MIC; assay type: cell-based, Staphylococcus aureus; conditions: SI = IC50 (MRC-5)/MIC, from lowest and highest MIC values
[2] = tested on: S. aureus ATCC 43300 MRSA; assay: Selectivity index SI = IC50/MIC; assay type: cell-based, Staphylococcus aureus; conditions: SI = IC50 (MRC-5)/MIC

SMILES: CC(=O)NC[C@H]1CN(c2ccc(N3CCOCC3)c(F)c2)C(=O)O1 [LIN, linezolid, reference compound]
- SI range for S. aureus MRSA clinical strains (NMI) [1]: >400
- SI for S. aureus ATCC 43300 MRSA [2]: >200
